PubChem BioAssay AID624099, ICCB-Longwood, 2012
The deposit covers about 21,000 reagents; this is a random part of them. 497 of them (2.4%) were called active. 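Higher z means weaker E2 silencing; only reporter increases were scored, and knock-downs that hurt cell survival may mask genuine repressor factors.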 A number with no mark means an inactive call. No sequences are given here.

Purpose: 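Human genes that papillomavirus E2 requires to repress the HPV18 LCR promoter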 (primary screen)
System: human C33A cervical carcinoma cells (HPV-negative) stably expressing BPV1 E2 and an HPV18 LCR luciferase reporter
Reagent: siRNA pool against human genes, 40 nM
Time to read-out: 72 h
Read-out: 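Per-well luciferase luminescence, z-scored on each plate against the plate mean and SD with control wells left out, then averaged across three replicate plates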
Direction: mean z-score and z-score: higher = stronger reporter signal, weaker E2 silencing
Call rule: 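Hit if mean z-score reaches 2 and two or more of three replicate z-scores also reach 2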

LINC01501 — mean z-score = 1; z-score, replicate A = 1.25; z-score, replicate B = 0.73; z-score, replicate C = 1.03
GRB7 — mean z-score = -0.31; z-score, replicate A = -0.15; z-score, replicate B = -0.43; z-score, replicate C = -0.36
INPP4B — mean z-score = 1.84; z-score, replicate A = 1.64; z-score, replicate B = 2.02; z-score, replicate C = 1.86
ENOPH1 — mean z-score = 0.16; z-score, replicate A = -0.42; z-score, replicate B = 0.06; z-score, replicate C = 0.84
GOLGA2 — mean z-score = -0.09; z-score, replicate A = -0.13; z-score, replicate B = 0.01; z-score, replicate C = -0.15
NR4A1 — mean z-score = 0.97; z-score, replicate A = 0.87; z-score, replicate B = 0.81; z-score, replicate C = 1.24
PPP2R3C — mean z-score = -0.2; z-score, replicate A = 0.02; z-score, replicate B = -0.27; z-score, replicate C = -0.34

2 consecutive records already listed, for reference:
LINC01501 — mean z-score = 1; z-score, replicate A = 1.25; z-score, replicate B = 0.73; z-score, replicate C = 1.03
GRB7 — mean z-score = -0.31; z-score, replicate A = -0.15; z-score, replicate B = -0.43; z-score, replicate C = -0.36

Next entries follow:
BMS1P20 — mean z-score = -0.62; z-score, replicate A = -0.84; z-score, replicate B = -0.8; z-score, replicate C = -0.24
RNF148 — mean z-score = 0.47; z-score, replicate B = 0.44; z-score, replicate C = 0.5
TOGARAM2 — mean z-score = 2.73 (active); z-score, replicate A = 2.63; z-score, replicate B = 2.66; z-score, replicate C = 2.88
KCNJ3 — mean z-score = 0.32; z-score, replicate A = 0.62; z-score, replicate B = -0.18; z-score, replicate C = 0.51
CDY1B — mean z-score = -0.61; z-score, replicate A = -0.89; z-score, replicate B = -0.31; z-score, replicate C = -0.62
